Measured values from several laboratories, pooled; numbers as filed in NIAID ChemDB.

Common to all: tests in culture; organism: HIV-1

Blank or dashed fields: not listed here. Lines come from different laboratories, so protocols vary. ECn is the concentration giving n% inhibition of infection, replication or growth.

structure	read by	strain	changes	endpoint	cells	value
N#CC(N)=NCCN=C(N)NC(N)=[NH+]CCCCCC[NH+]=C(N)NC(N)=NCCN.[Cl-].[Cl-]	β-galactosidase	IIIB		EC50	HeLa	100.5 µM
Cc1ccnc2c1NC(=O)c1cccnc1N2C1CC1	p24 / ELISA	1617-1		EC50	PBMC	0.156 µM
Nc1ccn([C@H]2C[C@H](CO)[C@@H](CO)O2)c(=O)n1				EC50	H9	0.01 µM
Cc1nc(C(=O)NC(C)(C)CNC[C@H](O)[C@@]23CC[C@]4(C)[C@H](CC[C@@H]5[C@@]6(C)CC[C@H](OC(=O)[C@H]7C[C@@H](C(=O)O)C7(C)C)C(C)(C)[C@@H]6CC[C@]54C)C2=C(C(C)C)C(=O)C3)cs1	p24 / ELISA	92HT599		EC50	MT-2	<1 µM
C/C1=C\[C@@H](C)C/C=C/[C@H]2[C@H](O)[C@@]3(C)O[C@@]4(Cc5c[nH]c6ccccc56)NC(=O)[C@]2(c2ccc([nH]2)C1=O)C4[C@@H]3C	p24 / ELISA / antigen	LAI		EC50	MT-4	0.55 µM
CC(C)(C#Cc1ccc2c(=O)n(-c3ccc(Cl)c4c(NS(=O)(=O)C5CC5)nn(CC(F)F)c34)c([C@H](Cc3cc(F)cc(F)c3)NC(=O)Cn3nc(C(F)F)c4c3C(F)(F)[C@@H]3C[C@H]43)nc2c1)S(C)(=O)=O	luciferase	NL4-3		EC50	MT-2	0.000047 µM
Cc1cn([C@H]2C=C[C@@H](COC(=O)CCCCCCCCCCCBr)O2)c(=O)[nH]c1=O	p24			EC90	MT-4	1.1 µM
CC=CC(=O)c1c(CC)c(=O)[nH]c(=O)n1COCC	cytopathic effect / MTT	HTLV-IIIB WT		EC50	MT-4	>100 µM
CN(CCS(=O)(=O)O)C(=N)N	syncytia	IIIB		EC50	C8166	29 µg/mL
[N-]=[N+]=N[C@H]1C[C@H](N2CC(=O)NCC2=O)O[C@@H]1CO	RT activity	US/92/727		EC50	PBMC	89.5 µM
Cc1nc(C)c([C@H](OC(C)(C)C)C(=O)O)c(N2CCC(C)(C)CC2)c1-c1ccc2c(c1)CCN(Cc1ccc(F)c(CC(F)(F)F)c1)C2	luciferase	NL4-3		EC50	MT-2	≤0.1 µM
CC(C)[C@@H]1NC(=O)[C@H](C(C)C)N([C@H]2C[C@H](N=[N+]=[N-])[C@@H](CO)O2)C1=O	RT activity	US/92/727		EC50	PBMC	1.96 µM
CCOCn1c(C(=O)C2=CCCCC2)c(CC)c(=O)[nH]c1=O	cytopathic effect / MTT	IIIB WT		EC50	MT-4	3.1 µM
COc1cc(/C=C/C(=O)OC(Cc2cc(OC)c(OC)c(OC)c2)C(=O)O)ccc1O	MTT			EC50	MDM	8.24 µM
O=C1Oc2cc3c(c4cccc1c24)OCN(c1ccccc1)C3	cytopathic effect / XTT	RF		EC50	CEM + CEM-SS	>200 µg/mL
CC(C)C1=C2[C@H]3CC[C@@H]4[C@@]5(C)CC[C@H](OC(=O)[C@H]6C[C@@H](C(=O)O)C6(C)C)C(C)(C)[C@@H]5CC[C@@]4(C)[C@]3(C)CC[C@@]2([C@@H](O)CNC(=O)c2ccc(Cl)cc2OCCN2CCOCC2)CC1=O	p24 / ELISA	92HT599		EC50	MT-2	<1 µM
O=C(O)CCC(CCC(=O)O)(CCC(=O)O)NC(=O)CCC(CCC(=O)NC(CCC(=O)O)(CCC(=O)O)CCC(=O)O)(CCC(=O)NC(CCC(=O)O)(CCC(=O)O)CCC(=O)O)NC(=O)CCCOC(=O)C1(C(=O)OCCCC(=O)NC(CCC(=O)NC(CCC(=O)O)(CCC(=O)O)CCC(=O)O)(CCC(=O)NC(CCC(=O)O)(CCC(=O)O)CCC(=O)O)CCC(=O)NC(CCC(=O)O)(CCC(=O)O)CCC(=O)O)C2c3cc4c5c6c3-c3c(cc7c8c3C6C3c6c-5c(cc5ccc9cc(c-8c3c9c65)C7)C4)C21	cytopathic effect		AZT-resistant (RT 215/41)	EC50	PBMC	0.97 µM
[N-]=[N+]=N[C@H]1C[C@H](CO)O[C@@H]1n1cc(F)c(N)nc1=O	RT activity	LAV		EC50	CEM	3.9 µM
Nc1ccn([C@@H]2C=C(F)[C@H](CO)O2)c(=O)n1	RT activity	LAI		EC50	PBMC	<0.67 µM
CCCCCCCCCc1ccc(OCCOCCOCCOCCOCCOCCOCCOCCOCCO)cc1	β-galactosidase	IIIB		EC50	HeLa	81 µM
C[C@@H]1NC(=O)[C@H](C)N([C@H]2C[C@H](O)[C@@H](CO)O2)C1=O	RT activity	US/92/727		EC50	PBMC	27.6 µM
CCOCn1c(Cc2ccccc2)c(C(C)C)c(=O)[nH]c1=O	cytopathic effect / MTT	IIIB WT		EC50	MT-4	0.031 µM
Cc1ccc(C(C)N2CCc3cc(-c4c(C)nc(C)c([C@H](OC(C)(C)C)C(=O)O)c4N4CCC(C)(C)CC4)ccc3C2)cc1C(F)(F)F	luciferase	NL4-3		EC50	MT-2	≤0.1 µM
COc1ccc(S(=O)(=O)N(CC(C)C)C[C@@H](O)[C@@H]2CCCCCCCCCOc3c(O)cccc3C(=O)N2)cc1	cytopathic effect / MTT	LAI		EC75	MT-2	>1 µM
CC(C)C1=C2[C@H]3CC[C@@H]4[C@@]5(C)CC[C@H](OC(=O)[C@H]6C[C@@H](C(=O)O)C6(C)C)C(C)(C)[C@@H]5CC[C@@]4(C)[C@]3(C)CC[C@@]2(CC(=O)NC[C@H](CO)NC(=O)c2ccc(Cl)cc2)CC1=O	p24 / ELISA	92HT599		EC50	MT-2	<1 µM
CCOCn1c2c(c(=O)[nH]c1=O)CCC2c1ccccc1	cytopathic effect / MTT	IIIB		EC50	MT-4	36 µM
CC1=C[C@@H]2/C=C/C[C@H](C)/C=C(\C)C(=O)c3ccc([nH]3)[C@]23C(=O)N[C@@H](Cc2c[nH]c4ccccc24)C3[C@@H]1C	p24 / ELISA / antigen	LAI		EC50	MT-4	1.23 µM
Nc1ccn([C@H]2C[C@H](CO)[C@@H](CO)O2)c(=O)n1	cytopathic effect / XTT	RF		EC50	CEM + CEM-SS	0.02 µg/mL
Cc1nc(C)c([C@H](OC(C)(C)C)C(=O)O)c(N2CCC(C)(C)CC2)c1-c1ccc2c(c1)CCN(Cc1ccc(OC(F)(F)F)cc1F)C2	luciferase	NL4-3		EC50	MT-2	≤0.1 µM
NCCN=C(N)NC(N)=[NH+]CCCCCC[NH+]=C(N)NC(N)=NCCN=C(N)NC12CC3CC(CC(C3)C1)C2	β-galactosidase	IIIB		EC50	HeLa	119 µM
Cc1nc(C)c([C@H](OC(C)(C)C)C(=O)O)c(N2CCC(C)(C)CC2)c1-c1ccc2c(c1)CCN(Cc1ccc(F)c(F)c1)C2	luciferase	NL4-3		EC50	MT-2	0.006 µM
CC(C)C1=C2[C@H]3CC[C@@H]4[C@@]5(C)CC[C@H](OC(=O)[C@H]6C[C@@H](C(=O)O)C6(C)C)C(C)(C)[C@@H]5CC[C@@]4(C)[C@]3(C)CC[C@@]2(CCNC(=O)c2ccc(Cl)cc2OCCN(C)C)CC1=O	p24 / ELISA	92HT599		EC50	MT-2	<1 µM
CC(C)=CCOc1cc(NC(=S)c2ccoc2C)ccc1Cl	cytopathic effect / XTT	UC781-R (RT-Y181C)	RT-Y181C	EC50	CEM + CEM-SS	1 µM
O=C(Nc1ccc2c(O)c(N=Nc3ccc(C(=O)O)cc3)c(S(=O)(=O)O)cc2c1)Nc1ccc2c(O)c(N=Nc3ccc(C(=O)O)cc3)c(S(=O)(=O)O)cc2c1	cytopathic effect / XTT	RF		EC50	CEM + CEM-SS	8.8 µM
CC(C)C1=C2[C@H]3CC[C@@H]4[C@@]5(C)CC[C@H](OC(=O)[C@H]6C[C@@H](C(=O)O)C6(C)C)C(C)(C)[C@@H]5CC[C@@]4(C)[C@]3(C)CC[C@@]2([C@@H](O)CN(CCN(C)C)Cc2cccc(Cl)c2)CC1=O	p24 / ELISA	92HT599		EC50	MT-2	<1 µM
N#CC(N)=NCCCC[NH+]=C(N)NC(N)=NCCCCN=C(N)NC(N)=[NH+]CCCCN.[Cl-].[Cl-]	β-galactosidase	IIIB		EC50	HeLa	76.8 µM
Cc1nc(C)c([C@H](OC(C)(C)C)C(=O)O)c(N2CCC(C)(C)CC2)c1-c1ccc2c(c1)CCN(Cc1cccc(CC(F)(F)C(F)F)c1)C2	luciferase	NL4-3		EC50	MT-2	≤0.1 µM
CCOCn1c(Cc2ccccc2)c(C(C)C)c(=O)[nH]c1=O	cytopathic effect / MTT	IIIB		EC50	MT-4	0.02 µM
Cc1cccc(C(F)(F)F)c1CN1CCc2cc(-c3c(C)nc(C)c([C@H](OC(C)(C)C)C(=O)O)c3N3CCC(C)(C)CC3)ccc2C1	luciferase	NL4-3		EC50	MT-2	≤0.1 µM
O=C1Nc2ccc(Cl)cc2[C@@](C#CC2CC2)(C(F)(F)F)N1			RT-V106A	EC90		<0.012 µM
CC(C)C1=C2[C@H]3CC[C@@H]4[C@@]5(C)CC[C@H](OC(=O)[C@H]6C[C@@H](C(=O)O)C6(C)C)C(C)(C)[C@@H]5CC[C@@]4(C)[C@]3(C)CC[C@@]2(CCNC(=O)c2ncc[nH]2)CC1=O	p24 / ELISA	92HT599		EC50	MT-2	<1 µM
COc1c(C)c2c(c(O)c1C/C=C(\C)CCC(=O)O)C(=O)OC2	RT activity	LAV-1		EC50	U-937	~0.01 µM
CCSCCCCCCCCCCCC(=O)OC[C@@H]1C=C[C@H](n2cc(C)c(=O)[nH]c2=O)O1	p24			EC50	MT-4	0.09 µM
CC1=C(C)[C@@H](O)[C@@H]2/C=C/C[C@H](C)C[C@@H](C)C(=O)c3ccc([nH]3)[C@]23C(=O)N[C@@H](Cc2c[nH]c4ccccc24)C13	p24 / ELISA / antigen	LAI		EC50	MT-4	0.25 µM
Cc1cc(C)cc(S(=O)(=O)c2c(C(=O)/C=C/C(N)=O)[nH]c3ccc(Cl)cc23)c1	cytopathic effect / MTT / p24	IIIB		EC50	MT-4	0.06 µM
O=C1Nc2ccc(F)c(F)c2[C@@](/C=C/C2CC2)(C(F)(F)F)N1			RT-Y181C	EC90		<0.012 µM

The last 4 rows once more:

structure | read by | strain | changes | endpoint | cells | value
CCSCCCCCCCCCCCC(=O)OC[C@@H]1C=C[C@H](n2cc(C)c(=O)[nH]c2=O)O1 | p24 |  |  | EC50 | MT-4 | 0.09 µM
CC1=C(C)[C@@H](O)[C@@H]2/C=C/C[C@H](C)C[C@@H](C)C(=O)c3ccc([nH]3)[C@]23C(=O)N[C@@H](Cc2c[nH]c4ccccc24)C13 | p24 / ELISA / antigen | LAI |  | EC50 | MT-4 | 0.25 µM
Cc1cc(C)cc(S(=O)(=O)c2c(C(=O)/C=C/C(N)=O)[nH]c3ccc(Cl)cc23)c1 | cytopathic effect / MTT / p24 | IIIB |  | EC50 | MT-4 | 0.06 µM
O=C1Nc2ccc(F)c(F)c2[C@@](/C=C/C2CC2)(C(F)(F)F)N1 |  |  | RT-Y181C | EC90 |  | <0.012 µM